Tests used:
Conditions in all cases: 48 h
P12-Ichikawa [1] = assay: cell viability relative to DMSO control; higher = less cytotoxic
In short: (§1)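 Library compounds in DMSO were pin-dosed in an 11-point threefold series (47 μM to 0.79 nM) onto leukemia cells in 1536-well plates (5 μl). Plates held 500 cells/well of NOMO1 or SEM or 1000 cells/well of P12-Ichikawa, each adapted for at least four passages in each medium. Luminescence was read with CellTiter-Glo One after 48 h at 37°C. Viability means the per-plate percentage relative to DMSO wells, using cell-free wells as background.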

NOMO1 [2] = assay: as above
In short: as §1

SEM cells [3] = assay: as above
In short: as §1

P12-Ichikawa [4] = assay: AUC of viability dose-response curve (% viability x log10 dose units); higher = less sensitive
In short: (§2)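 Seeding of medium-adapted leukemia cells was at 500 or 1000 cells/well in 1536-well plates, followed by 48 h at 37°C with library compounds in DMSO at 11 threefold doses from 47 μM to 0.79 nM. CellTiter-Glo One luminescence was normalised per plate to DMSO and cell-free wells and fitted as a four-parameter log-logistic function of log10 dose. Area under the curve was integrated by trapezoidal rule, with curves exceeding full viability scaled and curves failing quality control removed.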

NOMO1 [5] = assay: as above
In short: as §2

SEM cells [6] = assay: as above
In short: as §2

CCOC(=O)C(=O)CBr
cell viability [%]
Conditions | NOMO1 [2] | P12-Ichikawa [1] | SEM cells [3]
HPLM + 10% dialyzed FBS, 0.000781 µM | 105 | 98.7 | 110
HPLM + 10% dialyzed FBS, 0.00234 µM | 101 | 90.9 | 97.7
HPLM + 10% dialyzed FBS, 0.00702 µM | 112 | 101 | 105
HPLM + 10% dialyzed FBS, 0.0211 µM | 99.1 | 91.4 | 99.4
HPLM + 10% dialyzed FBS, 0.0632 µM | 88.8 | 95.2 | 104
HPLM + 10% dialyzed FBS, 0.19 µM | 91.1 | 89.8 | 96.6
HPLM + 10% dialyzed FBS, 0.569 µM | 108 | 91 | 94
HPLM + 10% dialyzed FBS, 1.71 µM | 94 | 89 | 89.9
HPLM + 10% dialyzed FBS, 5.12 µM | 86.9 | 89.1 | 89.2
HPLM + 10% dialyzed FBS, 15.4 µM | 88.5 | 86.1 | 77.7
HPLM + 10% dialyzed FBS, 46.1 µM | 58.8 | 85.7 | 70
RPMI 5 mM glucose + 10% FBS, 0.000781 µM | 95.8 | 85 | 119
RPMI 5 mM glucose + 10% FBS, 0.00234 µM | 99.7 | 94.3 | 120
RPMI 5 mM glucose + 10% FBS, 0.00702 µM | 97.7 | 92.9 | 130
RPMI 5 mM glucose + 10% FBS, 0.0211 µM | 90.9 | 95 | 108
RPMI 5 mM glucose + 10% FBS, 0.0632 µM | 85.4 | 96.4 | 113
RPMI 5 mM glucose + 10% FBS, 0.19 µM | 73.7 | 91.9 | 118
RPMI 5 mM glucose + 10% FBS, 0.569 µM | 90.3 | 87.5 | 118
RPMI 5 mM glucose + 10% FBS, 1.71 µM | 82.6 | 83.2 | 123
RPMI 5 mM glucose + 10% FBS, 5.12 µM | 72.9 | 82.4 | 93.3
RPMI 5 mM glucose + 10% FBS, 15.4 µM | 82.6 | 87.9 | 112
RPMI 5 mM glucose + 10% FBS, 46.1 µM | 57.4 | 71.1 | 82.5
RPMI 5 mM glucose + 10% dialyzed FBS, 0.000781 µM | 89.9 | 87.7 | 93.5
RPMI 5 mM glucose + 10% dialyzed FBS, 0.00234 µM | 94.8 | 90.4 | 89.4
RPMI 5 mM glucose + 10% dialyzed FBS, 0.00702 µM | 98.3 | 90 | 84.5
RPMI 5 mM glucose + 10% dialyzed FBS, 0.0211 µM | 91.7 | 90.3 | 98.7
RPMI 5 mM glucose + 10% dialyzed FBS, 0.0632 µM | 91 | 89.8 | 93.3
RPMI 5 mM glucose + 10% dialyzed FBS, 0.19 µM | 90.9 | 84.6 | 88.6
RPMI 5 mM glucose + 10% dialyzed FBS, 0.569 µM | 86.2 | 83 | 96.2
RPMI 5 mM glucose + 10% dialyzed FBS, 1.71 µM | 78.7 | 81.1 | 95.3
RPMI 5 mM glucose + 10% dialyzed FBS, 5.12 µM | 84.2 | 81.9 | 80.9
RPMI 5 mM glucose + 10% dialyzed FBS, 15.4 µM | 79.9 | 77.8 | 73.6
RPMI 5 mM glucose + 10% dialyzed FBS, 46.1 µM | 57.9 | 67.3 | 64.7

AUC of viability dose-response curve
Conditions | NOMO1 [5] | P12-Ichikawa [4] | SEM cells [6]
HPLM + 10% dialyzed FBS | 454 | 437 | 433
RPMI 5 mM glucose + 10% FBS | 404 | 422 | 454
RPMI 5 mM glucose + 10% dialyzed FBS | 414 | 403 | 420
